The test system of the data set is green pea aphid (Myzus persicae). The data set can be described thus: Aphid mortality on leaf discs, Potters tower, K4B3 extract versus beauvericin. The format is in vivo. The note with it: 2 mL sprayed; 48 hours; beauvericin 50 μg/mL. On the procedure:
Table 7 below presents mortality observed amongst green pea aphid (Myzus persicae) present on Asian brassica leaf discs. Asian brassica leaf discs were placed on 1% water agar in Petri dishes. 2 mL of K4B3 extract, beauvericin solution (50 μg/mL, supplemented with 2.5 mL millennium oil/L), and a water control was sprayed using the Potters tower. The sprayed Petri dishes were placed dorsal side down on paper towels to allow surfaces to dry. Five replicates of each treatment were done. Mortality was assessed 48 hours after application.

We go through one substance from US20150050244A1, “Entomopathogenic Fungi and Uses Thereof” (priority 2008, published 2015).

As for beauvericin, the “% Mortality Adult” value turned out to be 5% and the “% Mortality Juv.” value is 7%.
